# Experimental data reported in patent US9402819B2, “Anti-HIV compound and preparation method and use thereof” (Sichuan University, priority 2012, dated 2016).
# Assay: Cytotoxicity (CC50) in C8166 cells
# Type: cell-based
# Conditions: human
structure (smiles),measurement,value
"COc1ccccc1NC(=O)c1cc(N)ccc1Sc1ccc([N+](=O)[O-])cc1 [Compound 24, 5-amino-N-(2-methoxyphenyl)-2-((4-nitrophenyl)thio)benzamide]",CC50,172 µg/mL
